A mixed list of measured activities; the numbers were collected in NIAID ChemDB.

All rows: whole-cell or culture tests; agent: HIV-1; cell line: MT-2; endpoint: inhibition

Inhibition is in % at the dose shown (toxicity tests: loss of growth or viability).

SMILES,strain,changes,read by,conditions,dose,result
CC(C)C[C@@H]1[C@H](O)[C@@H](O)[C@@H](CC(C)C)N(Cc2cccc(C(=O)Nc3nc4ccccc4[nH]3)c2)C(=O)N1Cc1cccc(C(=O)Nc2nc3ccccc3[nH]2)c1,RF,PR-I84V,-,3 d,0.02 µM,90%
Nc1cccc(CN2C(=O)N(Cc3cccc(N)c3)[C@H](Cc3ccccc3)[C@H](O)[C@@H](O)[C@H]2Cc2ccccc2)c1,THAI (PR-D60E I84V),PR-D60E I84V,virus yield,-,1.26 µM,90%
Nc1nc(N)c2ncn([C@H]3CC[C@@H](CO)O3)c2n1,IIIB,-,cytopathic effect / trypan blue,-,200 µM,77%
CC(C)=CCOc1c2occc2cc2ccc(=O)oc12,NL4-3 Recombinant,-,luciferase,-,25 µM,60%
O=C(Nc1ncc[nH]1)c1cccc(CN2C(=O)N(Cc3cccc(C(=O)Nc4ncc[nH]4)c3)[C@H](Cc3ccccc3)[C@H](O)[C@@H](O)[C@H]2Cc2ccccc2)c1,RF,-,p24,-,0.0019 µM,90%
COc1cc(O)c2c(=O)oc3cc(O)cc(C)c3c2c1,NL4-3,-,luciferase,pseudotyped,60 µM,88%
Nc1nc(Br)c2ncn([C@H]3CC[C@@H](CO)O3)c2n1,IIIB,-,cytopathic effect / trypan blue,-,20 µM,100%
Nc1nc2c(ncn2[C@H]2C=C[C@@H](CO)C2)c(=O)[nH]1,-,-,cytopathic effect / XTT,-,4.36 µg/mL,16.5%
O=c1cc(-c2ccc(O)c(O)c2)oc2cc(O[C@@H]3O[C@H](CO)[C@@H](O)[C@H](O)[C@H]3OS(=O)(=O)O)cc(O)c12,-,-,p24,-,300 µM,>95%
O=C(O)/C=C/c1ccc(O)c(O)c1,LAI,-,cytopathic effect,-,80 µg/mL,12%
Nc1c(S(=O)(=O)O)cc2c3c(cc(S(=O)(=O)O)cc13)C(=O)N(NC(=O)N/N=C/c1cccc(C=O)c1)C2=O,-,-,syncytia,-,40 µM,0%
Cc1cn([C@H]2C[C@H](N=[N+]=[N-])[C@@H](CO)O2)c(=O)[nH]c1=O,LAV-1,-,syncytia,-,0.3 µM,>99%
O=C1N(CC2CCCCC2)[C@H](Cc2ccccc2)[C@H](O)[C@@H](O)[C@@H](Cc2ccccc2)N1CC1CCCCC1,RF,-,hybridisation,-,96 µM,<90%
Nc1nc(Cl)nc2c1ncn2[C@H]1CC[C@@H](CO)O1,IIIB,-,cytopathic effect / trypan blue,-,2 µM,2%
Nc1cccc(CN2C(=O)N(Cc3cccc(N)c3)[C@H](Cc3ccccc3)[C@H](O)[C@@H](O)[C@H]2Cc2ccccc2)c1,RF,-,hybridisation,-,0.023 µg/mL,90%
COCCNC(=O)[C@@H](NC(=O)[C@H](Cc1ccc(OC)c(OC)c1OC)C[C@H](O)[C@H](Cc1ccccc1)NC(=O)OC(C)(C)C)C(C)C,MN,-,RT activity,-,0.03 µM,100%
Nc1ncnc2c1ncn2[C@H]1CC[C@@H](CO)O1,IIIB,-,cytopathic effect / XTT,-,7 µM,99%
CC(C)CN(C[C@@H](O)[C@H](Cc1ccccc1)NC(=O)[C@@H](NC(=O)CNCc1cccc(F)c1)C(C)(C)C)S(=O)(=O)c1cccc(N)c1,Clinical isolate E,-,virus yield,-,0.011 µM,90%
CC(C)=CCOc1cc(NC(=S)c2ccoc2C)ccc1Cl,IIIB,-,p24,-,0.0166 µg/mL,70%
O=C1N(C/C=C/c2cn[nH]c2)[C@H](Cc2ccccc2)[C@H](O)[C@@H](O)[C@@H](Cc2ccccc2)N1CC1CC1,RF,-,-,-,0.82 µM,90%
Nc1cccc(CN2C(=O)N(Cc3cccc(N)c3)[C@H](Cc3ccccc3)[C@H](O)[C@@H](O)[C@H]2Cc2ccccc2)c1,RF,-,-,-,0.125 µM,90%
CCOCCN1C(=O)N(CCOCC)[C@H](Cc2ccccc2)[C@H](O)[C@@H](O)[C@H]1Cc1ccccc1,RF,-,hybridisation,-,106 µM,<90%
CC(C)(C)NC(=O)[C@@H]1C[C@@H]2CCCC[C@@H]2CN1C[C@@H](O)[C@H](Cc1ccccc1)NC(=O)[C@H](CC(N)=O)NC(=O)c1ccc2ccccc2n1,HXB2,PR-G48V,p24,-,0.02 µM,90%
CCN1C(=O)N(CC)[C@H](Cc2ccccc2)[C@H](O)[C@@H](O)[C@H]1Cc1ccccc1,RF,-,hybridisation,-,132 µM,<90%
COc1cc([C@@H]2c3cc4c(cc3[C@@H](O[C@@H]3O[C@@H]5CO[C@@H](C)O[C@H]5[C@H](O)[C@H]3O)[C@H]3COC(=O)[C@H]23)OCO4)cc(OC)c1O,IIIB,-,XTT,-,0.3 µg/mL,95%
O=C1N(c2ccccc2)c2ccccc2C1(Cc1nccn1Cc1ccccc1)Cc1nccn1Cc1ccccc1,RF,-,plaque count,-,11 µM,72%
CC(C)Nc1cccnc1N1CCN(C(=O)c2cc3cc(N=CN(C)C)ccc3[nH]2)CC1,LAV,-,-,-,1 µM,93%
CC(C)(C)NC(=O)[C@@H]1CN(Cc2cccnc2)CCN1C[C@@H](O)C[C@@H](Cc1ccccc1)C(=O)N[C@H]1c2ccccc2C[C@H]1O,NL4-3 WT,-,p24,-,0.1 µM,99.87%
CCCCCCN1C(=O)N(CCCCCC)[C@H](Cc2ccccc2)[C@H](O)[C@@H](O)[C@H]1Cc1ccccc1,RF,-,hybridisation,-,102 µM,<90%
O=C1N(Cc2ccc3[nH]c(=O)[nH]c3c2)[C@H](Cc2ccccc2)[C@H](O)[C@@H](O)[C@@H](Cc2ccccc2)N1Cc1ccc2[nH]c(=O)[nH]c2c1,RF,-,-,-,65 µM,<90%
O=C1N(Cc2ccc(CO)cc2)[C@H](Cc2ccccc2)[C@H](O)[C@@H](O)[C@@H](Cc2ccccc2)N1Cc1ccc(CO)cc1,A018A PRE-AZT,-,virus yield,-,0.14 µM,90%
CCOC(=O)c1c(C(C)C)c(C#N)c(=N)n2ccccc12,-,-,cytopathic effect,-,8 µM,85%
N/C(=N/O)c1cccc(CN2C(=O)N[C@H](CCc3ccccc3)[C@@H](O)[C@H]2Cc2ccccc2)c1,RF,-,cytopathic effect / MTT,-,0.37 µM,90%
Nc1nc2c(ncn2[C@H]2CC[C@@H](CO)O2)c(=O)[nH]1,IIIB,-,syncytia,-,1 µM,58%
Nc1nc(I)c2ncn([C@H]3CC[C@@H](CO)O3)c2n1,IIIB,-,cytopathic effect / trypan blue,-,20 µM,97%
OC[C@H]1O[C@@H](n2cnc3cc(Cl)c(Cl)cc32)[C@H](O)[C@@H]1O,NL4-3 Recombinant VSV-pseudotyped,-,luciferase,-,50 µM,76%
CCOC(=O)N1CCC(CC2C(=O)N(c3ccccc3)c3ccccc32)CC1,RF,-,plaque count,-,11.3 µM,52%
CC(C)CN(C[C@@H](O)[C@H](Cc1ccccc1)NC(=O)[C@@H](NC(=O)CNCc1cccc(F)c1)C(C)(C)C)S(=O)(=O)c1ccc(N)cc1,THAI 9466,-,virus yield,-,0.011 µM,90%

A second listing of 5 rows from above:

SMILES | strain | changes | read by | conditions | dose | result
COCCNC(=O)[C@@H](NC(=O)[C@H](Cc1ccc(OC)c(OC)c1OC)C[C@H](O)[C@H](Cc1ccccc1)NC(=O)OC(C)(C)C)C(C)C | MN | - | RT activity | - | 0.03 µM | 100%
CC(C)(C)NC(=O)[C@@H]1C[C@@H]2CCCC[C@@H]2CN1C[C@@H](O)[C@H](Cc1ccccc1)NC(=O)[C@H](CC(N)=O)NC(=O)c1ccc2ccccc2n1 | HXB2 | PR-G48V | p24 | - | 0.02 µM | 90%
Cc1cn([C@H]2C[C@H](N=[N+]=[N-])[C@@H](CO)O2)c(=O)[nH]c1=O | LAV-1 | - | syncytia | - | 0.3 µM | >99%
O=C1N(c2ccccc2)c2ccccc2C1(Cc1nccn1Cc1ccccc1)Cc1nccn1Cc1ccccc1 | RF | - | plaque count | - | 11 µM | 72%
OC[C@H]1O[C@@H](n2cnc3cc(Cl)c(Cl)cc32)[C@H](O)[C@@H]1O | NL4-3 Recombinant VSV-pseudotyped | - | luciferase | - | 50 µM | 76%

An empty or dashed field is not shown. Lines come from different laboratories, so protocols vary.